Values quoted from earlier work as cited in paper PMC5718886.

Molecular target: His37 (UniProt position 37, IIGILHLILWI)
Test: NMR
Settings: membrane-reconstituted M2TM tetramer, no drug mentioned

Matrix protein 2 (M2) proton channel, transmembrane segment (M2TM) (Influenza A virus)
pKa: 8.2±0.2
